Results: ChEMBL document CHEMBL6153062, “Design, Synthesis, and Unprecedented Interactions of Covalent Dipeptide-Based Inhibitors of SARS-CoV-2 Main Protease and Its Variants Displaying Potent Antiviral Activity” (J Med Chem, 2025)

The compounds below were run on Severe acute respiratory syndrome coronavirus 2 (assay: Inhibition of SARS-CoV-2 MPro using Boc-Abu-Tle-Leu-Gln-AMC as substrate assessed as Kinact/Ki ratio preincubated for 5 mins followed by substrate addition and measured after 60 mins). Conditions: time 65.0 min.

SMILES | Ratio
C=CC(=O)[C@H](Cc1ccccc1)NC(=O)[C@H](CC(C)C)NC(=O)COc1ccc(Cl)cc1 | 23800 M⁻¹ s⁻¹
C=CC(=O)[C@H](Cc1ccccc1)NC(=O)[C@H](CC(C)C)NC(=O)CCc1ccc(Cl)cc1Cl | 35800 M⁻¹ s⁻¹
C=CC(=O)[C@H](Cc1cccc(F)c1)NC(=O)[C@H](CC(C)C)NC(=O)COc1ccc(Cl)cc1Cl | 24500 M⁻¹ s⁻¹
C=CC(=O)[C@H](Cc1ccccc1)NC(=O)[C@H](CC(C)C)NC(=O)C(C)(C)Sc1ccccc1 | 73700 M⁻¹ s⁻¹
C=CC(=O)[C@H](Cc1ccccc1)NC(=O)[C@H](CC(C)C)NC(=O)/C=C/c1ccc(N(C)C)cc1 | 9200 M⁻¹ s⁻¹
C=CC(=O)[C@H](Cc1ccccc1)NC(=O)[C@H](CC(C)C)NC(=O)/C=C/c1ccc(OC(F)(F)F)cc1 | 7720 M⁻¹ s⁻¹
C=CC(=O)[C@H](Cc1ccccc1)NC(=O)[C@H](CC(C)C)NC(=O)c1cc2ccccc2n1C | 41000 M⁻¹ s⁻¹
